{"source": "patent US20120269821A1", "molecular_target": "COT6.15 envelope, wild type (HIV-1)", "test": "cell-based or functional assay"}
{"substance": "mAb 4E10 (antibody)", "values": [{"measurement": "Ratio (mutant IC50)/(wild-type IC50)", "result": 1}]}
